Columns and labels:
EV-A71 US/AK/16-19516 = experiment: CPE assay, EV-A71 US/AK in RD cells; type: cell-based, Enterovirus A71 (EV-A71)
[1] = test system: EV-D68 US/KY/14-18953 in A172 cells; experiment: CPE assay, EV-D68 US/KY/14-18953 in A172 cells; type: cell-based, Enterovirus D68 (EV-D68)
[2] = test system: EV-D68 US/KY/14-18953 in SH-SY5Y cells; experiment: CPE assay, EV-D68 US/KY/14-18953 in SH-SY5Y cells; type: cell-based, Enterovirus D68 (EV-D68)
[3] = test system: EV-D68 US/MO/14-18947 in A172 cells; experiment: CPE assay, EV-D68 US/MO/14-18947 in A172 cells; type: cell-based, Enterovirus D68 (EV-D68)
[4] = test system: EV-D68 US/MO/14-18947 in SH-SY5Y cells; experiment: CPE assay, EV-D68 US/MO/14-18947 in SH-SY5Y cells; type: cell-based, Enterovirus D68 (EV-D68)

With `CN1CCC(NC(=O)c2cc(-c3cccs3)nc3ccccc23)C1` (stereo not drawn) [drawing 191] the SI50 (EV-A71 US/AK/16-19516) was 4.9.

In the case of `CN(C)CCNC(=O)c1cc(-c2ccco2)nc2ccccc12` [drawing 194], the SI50 (EV-A71 US/AK/16-19516) is reported as 9.5.

`CC(CN(C)C)NC(=O)c1cc(-c2cccs2)nc2ccccc12` (stereo not drawn) [drawing 190] gave an SI50 (EV-A71 US/AK/16-19516) of 2.3.

In the case of `CC(CN(C)C)NC(=O)c1cc(-c2ccccc2)nc2ccccc12` (stereo not drawn) [drawing 183], the SI50 (EV-A71 US/AK/16-19516) is reported as 5.6.

With `O=C(NCCN1CCCC1)c1cc(-c2cccs2)nc2ccccc12` [drawing 134] the SI [1] was 1308.0, the SI [2] was 933.0 and the SI [3] was 327.0. The SI [4] was 4665.0.

In the case of `CN(C)CCNC(=O)c1cc(-c2ccc(F)cc2)nc2ccccc12` [drawing 185], the SI50 (EV-A71 US/AK/16-19516) is reported as 15.7.

`NCCNC(=O)c1cc(-c2ccc(F)cc2)nc2ccccc12` [drawing 187] was tested, and the SI50 (EV-A71 US/AK/16-19516) was 3.4.

`CNCCNC(=O)c1cc(-c2cccs2)nc2ccccc12` [drawing 192] gave an SI50 (EV-A71 US/AK/16-19516) of 9.0.

For `CN(C)CCNC(=O)c1cc(-c2cccs2)nc2ccccc12` [drawing 133], the SI [1] was 3690.0, the SI [2] was 1363.0 and the SI [3] was 738.0. It also gave an SI [4] of 13630.0.
